Reference: PubChem BioAssay AID504761 (Drosophila RNAi Screening Center, 2011)

- Purpose: 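Insect host genes that dengue virus relies on to spread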 (primary screen)
- Cells: D.Mel-2 cells from Drosophila
- Knock-down reagent: long dsRNA against Drosophila genes
- Conditions: infection with dengue virus type 2; dose and infection time not stated
- Measured: 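Cells stained for dengue envelope protein and imaged; percent of infected cells per well on duplicate plates, ranked by infection, with stained nuclei counted for cell number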
- Reading the numbers: infection score: higher = more virus-infected cells; cell count: higher = more cells in the well
- Rule for the call: 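Very low infection ranking in both replicate wells (chance probability at most 0.065), then a retest showing infection dropped 1.5-fold or more at p below 0.05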
- Meaning of the calls: active = confirmed: knock-down lowers infection; inactive = not picked or not confirmed
The deposit covers about 22,000 reagents; shown is a random part of those that have a named target and a result. In the full data, 116 (0.52%) got an active call. 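Calls depend on retest data that are not deposited; infection was ranked per plate without normalising between plates; the unit of the infection score is not given.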 Raw values vary from plate to plate and are shown uncorrected. Unmarked entries are inactive. Names joined by + are all predicted targets of the reagent. Not all columns of the deposit are shown. No sequences are given here. The record does not give: the amount of reagent, the time to read-out.

CG33337 [DRSC13632] scored infection score, replicate 1 = 5.24; cell count, replicate 1 = 6255.
Knock-down of CG33337 [DRSC27000] gave: infection score, replicate 1 = 10.3; cell count, replicate 1 = 6714.
kis (kismet) [DRSC00521] showed infection score, replicate 1 = 15.2; cell count, replicate 1 = 6500.
With knock-down of kis (kismet) [DRSC00625], the screen gave infection score, replicate 1 = 1.54; cell count, replicate 1 = 5661.
For kis (kismet) [DRSC00823], the values are infection score, replicate 1 = 9.55; cell count, replicate 1 = 4826.
Silencing of MED25 (Mediator complex subunit 25) [DRSC22981] gave: infection score, replicate 1 = 3.78; cell count, replicate 1 = 6209.
MED25 (Mediator complex subunit 25) [DRSC25776] showed infection score, replicate 1 = 4.11; cell count, replicate 1 = 6469.
For CG14933 + CG42486 [DRSC02415] the deposit lists infection score, replicate 1 = 2.89; cell count, replicate 1 = 6506.
Silencing of Cdc16 (Cell division cycle 16) [DRSC16920] came out at: infection score, replicate 1 = 2.47; cell count, replicate 1 = 2515.
After knock-down of l(2)05714 (lethal (2) 05714) [DRSC03118], the record shows infection score, replicate 1 = 6; cell count, replicate 1 = 5501.
l(2)05714 (lethal (2) 05714) [DRSC29829] scored infection score, replicate 1 = 15.1; cell count, replicate 1 = 6052.
With knock-down of mwh (multiple wing hairs) [DRSC08382], the screen gave infection score, replicate 1 = 2.72; cell count, replicate 1 = 5845.
Against mwh (multiple wing hairs) [DRSC27439] the deposit lists infection score, replicate 1 = 7.32; cell count, replicate 1 = 6913.

2 entries from above, showing only “cell count, replicate 1”.
MED25 (Mediator complex subunit 25) [DRSC25776]	6469
CG14933 + CG42486 [DRSC02415]	6506
